A mixed list of measured activities; the numbers were collected in NIAID ChemDB.

Common to all: host cell toxicity; cell line: MT-4; measure: CC50

CCn: concentration that lowers growth or viability of the cells by n%.

SMILES,result
Fc1cc2nc3n(c2cc1F)C(c1c(F)cccc1F)SC3,37.3 µM
COc1cc(C(F)(F)F)cc(S(=O)(=O)c2cccc(N)c2C#N)c1,94 µM
CC1(C)S[C@H]([C@H](NC(=O)Cc2ccccc2)C(=O)NCc2ccccc2)N[C@H]1C(=O)N[C@H](Cc1ccccc1)[C@H](O)CC(=O)N[C@H](CO)c1ccccc1,>100 µM
Cc1cccc2nc3n(c12)C(c1c(F)cccc1Cl)SC3,25.7 µM
CC1(C)S[C@H]([C@H](NC(=O)Cc2ccccc2)C(=O)NCc2ccccc2)N[C@H]1C(=O)N[C@H](Cc1ccccc1)[C@H](O)CC(=O)NCC(O)CO,>100 µM
c1ccc(CNCc2ccc(CN3CCCNCCNCCCNCC3)cc2)nc1,>300 µM
COCOc1ccc(/C=C/C(=O)c2c(O)cc(OCOC)cc2OCOC)cc1,11 µg/mL
Nc1ccn([C@H]2CC[C@@H](CO)O2)c(=O)n1,74–3000 µM
CCc1cc(NCc2nc3c(C)ccc(C)c3o2)c(=O)[nH]c1C,>60 µM
Cc1cn([C@H]2C[C@H](N=[N+]=[N-])[C@@H](CO)O2)c(=O)[nH]c1=O,27 µM
CNC(C)[C@H]1O[C@H](O[C@@H]2[C@@H](O)[C@H](O[C@@H]3OC[C@@](C)(O)[C@@H](NC)[C@@H]3O)[C@@H](NC(=O)[C@@H](N)CCCN=C(N)N)C[C@H]2NC(=O)[C@@H](N)CCCN=C(N)N)[C@H](NC(=O)[C@@H](N)CCCN=C(N)N)[C@@H](O)[C@@H]1O,>90 µM
O=c1ccn([C@H]2CC[C@@H](CO)O2)c(=O)[nH]1,>250 µM
Nc1ncnc2c1ncn2CCOCP(=O)(O)O,80 µM
COC1=C(N)C(=O)c2nc(-c3nc(C(N)=O)c(C)c(-c4ccc(OC)c(OC)c4O)c3N)ccc2C1=O,0.1 µg/mL
c1ccc(C2OCc3nc4ccccc4n32)cc1,32.2 µM
Fc1cccc(F)c1C1SCc2nc3ccc(C(F)(F)F)cc3n21,>351 µM
C[C@H](CCC(=O)O)[C@H]1CC[C@H]2[C@@H]3C[C@H](OS(=O)(=O)O)[C@@H]4C[C@H](OS(=O)(=O)O)CC[C@]4(C)[C@H]3CC[C@]12C,>500 µg/mL
CC(C)CNC(=O)C[C@@H](O)[C@@H](Cc1ccccc1)NC(=O)[C@@H]1N[C@@H]([C@H](NC(=O)Cc2ccccc2)C(=O)NCc2ccccc2)SC1(C)C,>100 µM
C[C@H](CCC(=O)O)[C@H]1CC[C@H]2[C@@H]3[C@H](OS(=O)(=O)O)C[C@@H]4C[C@H](OS(=O)(=O)O)CC[C@]4(C)[C@H]3C[C@H](OS(=O)(=O)O)[C@]12C,>500 µg/mL
Nc1ccn([C@H]2CC[C@@H](CO)O2)c(=O)n1,73.9 µM
COc1cc(O)cc2c1[C@@H]1Oc3c(ccc(O)c3CC=C(C)C)[C@@H]1CO2,12 µg/mL
Fc1ccc(F)c(C2OCc3nc4ccccc4n32)c1,34.9 µM
Nc1ccn([C@H]2CC[C@@H](CO)O2)c(=O)n1,9.1 µM
Cc1cc(Cl)cc(S(=O)(=O)c2cccc(N)c2C#N)c1,133 µM
Fc1ccc2c(c1)nc1n2C(c2c(F)cccc2F)SC1,35.9 µM
NCCCN1c2ccccc2Sc2ccc(Cl)cc21,9.3 µg/mL
C=CC(C)(C)c1cc(/C=C/C(=O)c2ccc(O)cc2)c(OC)cc1O,15 µg/mL
COc1cc(O)c2c(c1)C(=O)c1c(cc3c(c1O)-c1c(cc(C)c(C(=O)N[C@H](C)C(=O)O)c1O)[C@H](O[C@@H]1O[C@H](C)[C@H](N)[C@H](O[C@@H]4OC[C@@H](O)[C@H](O)[C@@H]4O)[C@H]1O)[C@H]3O)C2=O,>100 µg/mL
C[C@H](CCC(=O)O)[C@H]1CC[C@H]2[C@@H]3[C@H](OS(=O)(=O)O)C[C@@H]4C[C@H](O)CC[C@]4(C)[C@H]3C[C@H](O)[C@]12C,>500 µg/mL
COC(=O)NCCCN1c2ccccc2Sc2ccc(Cl)cc21,>500 µg/mL
O=c1[nH]c(=O)n([C@H]2C[C@H](F)[C@@H](CO)O2)cc1Cl,180 µM
CCCOc1cc(C)cc(S(=O)(=O)c2cccc(N)c2C#N)c1,9 µM
Cc1cccc2nc3n(c12)C(c1c(F)cccc1F)SC3,21.5 µM
CCOCn1c(Sc2ccccc2)c(CC)c(=O)[nH]c1=O,>100 µM
Nc1ncnc2c1ncn2[C@H]1C=C[C@@H](CO)O1,9.5 µM
CC1(C)[C@@H](O[C@H]2O[C@H](C(=O)O)[C@@H](O)[C@H](O)[C@H]2O[C@@H]2O[C@H](C(=O)O)[C@@H](O)[C@H](O)[C@H]2O)CC[C@]2(C)[C@H]3C(=O)C=C4[C@@H]5C[C@@](C)(C(=O)O)CC[C@]5(C)CC[C@@]4(C)[C@]3(C)CC[C@@H]12,>1193 µM
C[C@H](CCC(=O)NCC(=O)O)[C@H]1CC[C@H]2[C@@H]3CC[C@@H]4C[C@H](OS(=O)(=O)O)CC[C@]4(C)[C@H]3CC[C@]12C,240 µg/mL
CC(C)c1nc(COC(N)=O)n(Cc2ccncc2)c1S(=O)(=O)c1cc(Cl)cc(Cl)c1,>0.5 µg/mL
C/C(=C\Cc1c(O)cc(O)c2c(=O)c(-c3ccc(O)cc3)coc12)CO,9 µg/mL
N#Cc1c(N)cccc1S(=O)(=O)c1cccc(C(F)(F)F)c1,>200 µM
CC1(C)S[C@H]([C@H](NC(=O)Cc2ccccc2)C(=O)NCc2ccccc2)N[C@H]1C(=O)N[C@H](Cc1ccccc1)[C@H](O)CC(=O)NCc1ccccc1,>100 µM
Cc1cc(Br)cc(S(=O)(=O)c2cccc(N)c2C#N)c1,>200 µM
O=C(c1ccccc1)c1ccc2nc3n(c2c1)C(c1c(Cl)cccc1Cl)SC3,1.3 µM
C[C@H](CCC(=O)O)[C@H]1CC[C@H]2[C@@H]3CC[C@@H]4C[C@H](OS(=O)(=O)O)CC[C@]4(C)[C@H]3CC[C@]12C,276 µg/mL
Nc1ccn([C@H]2C=C[C@@H](CO)O2)c(=O)n1,2–10 µg/mL
N#Cc1c(F)cccc1S(=O)(=O)c1cc(Cl)cc(Cl)c1,>188 µM
Cc1cccc2c1nc1n2C(c2c(F)cccc2F)SC1,49.6 µM
c1cc(CN2CCCNCCNCCCNCC2)ccc1CN1CCCNCCNCCCNCC1,>200 µM
Fc1ccc2c(c1)nc1n2C(c2c(Cl)cccc2Cl)SC1,13.3 µM
CS(=O)(=O)NCCCN1c2ccccc2Sc2ccc(Cl)cc21,>500 µg/mL
C[C@H](CCC(=O)O)[C@H]1CC[C@H]2C3[C@@H](O)C[C@@H]4C[C@H](O)CC[C@]4(C)[C@H]3CC[C@]12C,143 µg/mL

4 of the rows above, restated:

SMILES,result
Nc1ccn([C@H]2CC[C@@H](CO)O2)c(=O)n1,73.9 µM
COc1cc(O)cc2c1[C@@H]1Oc3c(ccc(O)c3CC=C(C)C)[C@@H]1CO2,12 µg/mL
C[C@H](CCC(=O)O)[C@H]1CC[C@H]2C3[C@@H](O)C[C@@H]4C[C@H](O)CC[C@]4(C)[C@H]3CC[C@]12C,143 µg/mL
Cc1cc(Cl)cc(S(=O)(=O)c2cccc(N)c2C#N)c1,133 µM

Neighbouring rows are from separate reports. Two numbers with a dash give a range or band.